In PMC7986981 (ACS Pharmacology & Translational Science, 2021):

Target: SARS-CoV-2 3CL-Pro (Severe acute respiratory syndrome coronavirus 2, UniProt P0DTD1)
Settings: read-out: HP 3CL-Pro IC50

Substance: zinc pyrithione
- IC50: 100 nM
